From US20090203545 come the findings set out here.

For at least one entry, the source does not settle the construct or the ends of the probe.

Data set [1] concerns EBNA-1 DNA-binding domain derivative (dnEBNA1/Softag1) (Epstein-Barr virus). Briefly: EMSA. The settings on record: 1.6 nM protein, room temperature, 30 min; protein details: Softag1 epitope; label: end-labeled. In general terms: In EMSA bound probe runs differently from free probe, usually more slowly.
For data set [2] the test system is unchanged. Briefly: competition with a labelled probe. As to conditions: competitive EMSA, protein details: Softag1 epitope.

Turning to “GATAGCATATGCTACC (double strand) [single EBNA-1 site from FR (probe)]”, the binding result in data set [1] is on record as “binds”.

As for “GCCGGCGATCGATCGATAGTATATACTACTACCCGGGAAGCATATGCTACCGATCGATCACTAGCATCGATAGTATATACTACTACCCGGGAAGCATATGCTACCGATCGATCACTAGT (double strand) [S-W-W-S]”, the binding result in data set [2] is “binds”.

For the sequence “GCCGGCGATCGATCGATAGTATATACTACTACCCGGGAAGCATATGCTACCGATCGATCACTAGCATCGATAGTATATACTACTACCCGGGAAGCATATGCTACCGATCGATCACTAGT (double strand) [4xSiteIIIbs]”, in data set [2], the binding result is on record as “binds”.

Take “GCCGGCGATCGATCGATAGTATATACTACTACCCGGGAAGCATATGCTACCGATCGATCACTAGCATCGATAGTATATACTACTACCCGGGAAGCATATGCTACCGATCGATCACTAGT (double strand) [2x(DS 1+2)]”: in data set [2], the binding result is recorded as “binds”.

Consider “GATATCGCTGTTCCTTAGGACCCTTTTACTAACCCTAATTCGATAGCATATGCTTCCCGTTGGGTAACATATGCTATTGAATTAGGGTTAGTCTGGATAGTATATACTACTACCCGGGAAGCATATGCTACCCGTTTAGGGTTAACAAGCTTGATATC (double strand) [wtDS]”, for which, in data set [2] (4xFRbs > wtDS or 4xSiteIIIbs > 2x(DS 1+2) or SWWS >> 4xRep*bs), the binding result was “binds”.

Regarding “GCCGGCGATCGATCGATAGTATATACTACTACCCGGGAAGCATATGCTACCGATCGATCACTAGCATCGATAGTATATACTACTACCCGGGAAGCATATGCTACCGATCGATCACTAGT (double strand) [4xFRbs]”, in data set [2], the binding result is on record as “binds”.
